Biological target: gp41 of HIV-1 IIIB (subtype B, X4) (HIV-1 IIIB)
Assay: cell-based or functional assay

In the case of T1144 (peptide), the IC50, HIV-1 IIIB-mediated cell fusion is reported as 5.2 nM, the IC50, HIV-1 replication, IIIB (B, X4) is reported as 13 nM and the IC90, HIV-1 IIIB-mediated cell fusion is reported as 10.2 nM. It also gave an IC90, HIV-1 replication, IIIB (B, X4) of 65.7 nM.

Source: patent publication US20090298774A1
